# Measurements taken from patent US8748411B2, “Antineoplastic compounds and pharmaceutical compositions thereof” (Centro de Ingenieria Genetica y Biotechnologia, priority 2005, dated 2014).
# Protein sequences, listed by entry. Tags and fused reporters are not part of them. Lines headed by an entry give the natural chain unless they say otherwise; changes in a name come on top.
# UniProt P03129: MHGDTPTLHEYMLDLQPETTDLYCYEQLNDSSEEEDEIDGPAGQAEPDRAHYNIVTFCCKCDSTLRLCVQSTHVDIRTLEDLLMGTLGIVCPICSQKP
# Molecular target: oncoprotein E7 from Human Papilloma Virus type 16 as GST fusion protein (E7-GST), phosphorylated by CK2 enzyme (Human papillomavirus type 16, UniProt P03129)
# Settings: read-out: Inhibitory concentration 50 (IC50); E7-GST preincubated 1 h at 37° C. with compound; reaction 40 minutes at 37° C., 100 μM ATP
compound,measurement,value
NNC(=O)NP(=O)(NC(=O)NN)NC(=O)NN,IC50,0.022 µM
